Measured values from several laboratories, pooled; numbers as filed in NIAID ChemDB.

Shared fields: tests on isolated targets; agent: Toxoplasma gondii

Inhibition is in % at the dose shown (toxicity tests: loss of growth or viability). Blank or dashed fields: not listed here. ICn: concentration for n% inhibition. Conditions beyond the fields shown may differ between rows.

compound	strain or isolate	measure	dose	target	result
Nc1nc(N)c2nc(-c3ccc(O)cc3)c(-c3ccc(O)cc3)nc2n1	RH	IC50		DHFR	0.63 µM
O=P(O)(O)CP(=O)(O)O		IC50		Pyrophosphate-dependent phosphofructokinase	>2000 µM
O=C(O)Cc1cc(=O)[nH]c(=O)[nH]1	RH	inhibition	2000 µM	Uracil phosphoribosyltransferase	<5%
Nc1ccc(S(=O)(=O)NC2CCC(O)CC2)cc1		inhibition	270 µM	DHPS	94%
Cn1c(=O)[nH]c(=O)c2[nH]cnc21	RH	IC50		Phosphoribosyltransferase	>900 µM
C1CCC([NH2+]C2CCCCC2)CC1.C1CCC([NH2+]C2CCCCC2)CC1.O=C(O)/C(=N\Nc1ccc([N+](=O)[O-])cc1)P(=O)([O-])[O-]		IC50		Pyrophosphate-dependent phosphofructokinase	>2000 µM
Cn1c(=O)[nH]c(=O)c2[nH]c(=O)[nH]c21	RH	IC50		Phosphoribosyltransferase	>900 µM
Nc1ccc(S(=O)(=O)Nc2cc(I)cc(I)c2)cc1		Ki		DHPS	2.5 µM
Cc1[nH]c(=O)[nH]c(=O)c1[N+](=O)[O-]	RH	IC50		Uracil phosphoribosyltransferase	>2000 µM
O=c1[nH]ncc2[nH]cnc12	RH	Ki		Phosphoribosyltransferase	22 µM
O=C([O-])C(Br)P(=O)([O-])[O-].[Na+].[Na+].[Na+]		IC50		Pyrophosphate-dependent phosphofructokinase	>2000 µM
CCC1CSC(NS(=O)(=O)c2ccc(N)cc2)=N1		IC50		DHPS	>700 µM
Cn1c(=O)c2[nH]c(=O)[nH]c2n(C)c1=O	RH	IC50		Phosphoribosyltransferase	>900 µM
O=c1cccc[nH]1	RH	IC50		Uracil phosphoribosyltransferase	>2000 µM
CC1(C)N=C(N)N=C(N)N1c1cccc(OCCOc2cccc([N+](=O)[O-])c2)c1	RH	IC50		DHFR	0.04 µM
Cn1cc(Br)c(=O)[nH]c1=O	RH	inhibition	2000 µM	Uracil phosphoribosyltransferase	<5%
CCOC(=O)/C(=N\Nc1ccc(OC)cc1[N+](=O)[O-])P(=O)(OCC)OCC		IC50		Pyrophosphate-dependent phosphofructokinase	100 µM
Nc1nc(N)c2nc(CNc3cccc4ccccc34)cnc2n1	RH	IC50		DHFR	0.076 µM
O=c1ncc2[nH]cnc2[nH]1	RH	Ki		Phosphoribosyltransferase	570 µM
Cn1ccc(=O)[nH]c1=O	RH	IC50		Uracil phosphoribosyltransferase	>2000 µM
CN(Cc1cnc2nc(N)nc(N)c2n1)c1ccc(C(=O)N[C@@H](CCC(=O)O)C(=O)O)c(Cl)c1Cl	RH	IC50		DHFR	0.0076 µM
O=c1ccn([C@@H]2O[C@H](CO)[C@@H](O)[C@H]2O)c(=O)[nH]1	RH	IC50		Uracil phosphoribosyltransferase	>2000 µM
Nc1nc(Cl)nc2nc[nH]c12	RH	Ki		Phosphoribosyltransferase	630 µM
Nc1nc(N)c(-c2ccc(Cl)cc2)c(C(F)(F)F)n1	RH	IC50		DHFR	>42 µM
NS(=O)(=O)c1c[nH]c(=O)[nH]c1=O	RH	inhibition	2000 µM	Uracil phosphoribosyltransferase	<5%
O=P([O-])(O)C(Cl)(Cl)P(=O)([O-])c1ccccc1.c1cc[nH+]cc1		IC50		Pyrophosphate-dependent phosphofructokinase	>2000 µM
COc1ccnc(OC)n1	RH	IC50		Uracil phosphoribosyltransferase	>2000 µM
O=C(P(=O)(O)O)P(=O)(O)O		IC50		Pyrophosphate-dependent phosphofructokinase	13 µM
CCc1nc(N)nc(N)c1-c1ccc(N2CCCCC2)c([N+](=O)[O-])c1	RH	IC50		DHFR	0.43 µM

2 of the rows above, restated:

{"compound": "CN(Cc1cnc2nc(N)nc(N)c2n1)c1ccc(C(=O)N[C@@H](CCC(=O)O)C(=O)O)c(Cl)c1Cl", "strain or isolate": "RH", "measure": "IC50", "target": "DHFR", "result": "0.0076 µM"}
{"compound": "O=C(P(=O)(O)O)P(=O)(O)O", "measure": "IC50", "target": "Pyrophosphate-dependent phosphofructokinase", "result": "13 µM"}